Data published in article doi:10.1101/2023.08.28.555062, “Discovery of 2-amide-3-methylester thiophenes that target SARS-CoV-2 Mac1 and repress coronavirus replication, validating Mac1 as an anti-viral target” (bioRxiv, 2023).

Biological target: SARS-CoV-2 Mac1 (Severe acute respiratory syndrome coronavirus 2, UniProt P0DTD1)
Details: Table 1, commercial analogs, n=3; for IC50 (pIC50 ± SEM): pIC50 ± SEM: given with negative sign; for IC50: read-out: IC50 (pIC50 ± SEM): IC50 (converted)

| Structure (SMILES) | IC50 (pIC50 ± SEM): pIC50 ± SEM | IC50 [µM] |
| --- | --- | --- |
| COC(=O)c1c(NC(=O)C2C3CCC(C3)C2C(=O)O)sc2c1CCCCCC2 (stereo not shown) | −5.11 ± 0.02 | 7.8 |
| COC(=O)c1c(NC(=O)C2C3CCC(C3)C2C(=O)O)sc2c1CCCCC2 (stereo not shown) | −3.89 ± 0.02 | 130 |
